The values below are quoted from earlier work in US4942154A, “Steroidal glycolipids as host resistance stimulators against viral infection” (priority 1987, dated 1990).

For the series, the system named is AIDS / AIDS-related complex (ARC). The conditions noted are these: human, in vivo; cited from earlier work.

In the case of “Interleukin-2: Protein made by white blood cells that mediates production of interferon”, the “clinical effect in AIDS / ARC patients” value is given as “not encouraging”.
